Square brackets hold non-standard residues; d marks the D form. Peptide text beside a SMILES is read from it. Tyr(3-NO2) = N[C@@H](Cc1ccc(O)c([N+](=O)[O-])c1)C(=O)O; 2Abz = Nc1ccccc1C(=O)O
Assay: Internal fluorescence quenching and inner filter effect of substrate
Assay type: physicochemical
Settings: excitation at 312 nm and emission at 415 nm

## CC(C)C[C@H](NC(=O)[C@H](CCCNC(=N)N)NC(=O)[C@H](CO)NC(=O)[C@H](CO)NC(=O)[C@H](C)NC(=O)[C@H](CC(N)=O)NC(=O)[C@@H](NC(=O)[C@@H](NC(=O)c1ccccc1N)C(C)C)C(C)C)C(=O)N[C@@H](Cc1ccc(O)c([N+](=O)[O-])c1)C(=O)N[C@@H](CCCNC(=N)N)C(=O)O [Substrate 1] (H-[2Abz]VVNASSRL[Tyr(3-NO2)]R-OH)
  ratio F0/F∞ (internal fluorescence quenching): ≈ 4%
